A mixed list of measured activities; the numbers were collected in NIAID ChemDB.

Common to all: tests in culture; species: Human cytomegalovirus

Rows are shuffled and stem from different studies. Blank or dashed fields: not listed here. ECn is the concentration giving n% inhibition of infection, replication or growth.

SMILES,strain or isolate,measure,read by,cells,result
O=C(NCc1ccc(Cl)cc1)c1c[nH]c2c(F)cc(CCCO)cc2c1=O,DAVIS,EC50,virus yield,,<4.8 µM
C[C@@H]1O[C@@H](n2c(Cl)nc3cc(Cl)c(Cl)cc32)[C@H](O)[C@@H]1O,17517 (GCV-susceptible),EC50,plaque count,,0.57 µM
Nc1ccn(C[C@@H](CO)OCP(=O)(O)O)c(=O)n1,Acyclovir-resistant,EC50,plaque count,HEL,0.63 µM
OC[C@H]1O[C@@H](n2c(Br)nc3cc(Cl)c(Cl)cc32)[C@H](O)[C@@H]1O,C4 (D341E),EC95,virus yield,,6.8 µM
CC(C)Nc1nc2cc(Cl)c(Cl)cc2n1[C@H]1O[C@@H](CO)[C@H](O)[C@@H]1O,C8302,EC50,plaque count,MRC-5,0.16 µM
CCCCCCCCCCCCCCCCCCOCCOP1(=O)CO[C@@H](Cn2ccc(N)nc2=O)CO1,AD169,EC50,plaque count,MRC-5,0.0018 µM
O=C(NCc1ccc(Cl)cc1)c1c[nH]c2ccc(CCCO)cc2c1=O,HAR,EC50,plaque count,,0.6 µM
Nc1nc2c(ncn2COC(CO)CO)c(=O)[nH]1,C8708/17-1-1,EC50,plaque count,HFF,4.3 µM
Nc1ccn(C[C@H]2COP(=O)(O)CO2)c(=O)n1,C9208/5-4-2,EC50,plaque count,MRC-5,1.1 µM
O=C(O)P(=O)(O)O,Acyclovir-resistant,EC50,plaque count,HEL,116.6 µM
COc1cccc(N2CCN(C3=Nc4c(F)cccc4[C@H](CC(=O)O)N3c3cc(C(F)(F)F)ccc3OC)CC2)c1,Clinical isolate 3,EC50,plaque count,,0.0015 µM
O=C(NCc1ccc(Cl)cc1)c1c[nH]c2c(F)cccc2c1=O,Clinical isolates,EC90,plaque count,,>40 µM
Nc1nc2c(ncn2COC(CO)CO)c(=O)[nH]1,C4 (BDCRB-resistant),EC90,virus yield,HFF,1.6 µM
Nc1nc2c(ncn2COC(CO)CO)c(=O)[nH]1,C8910,EC50,plaque count,MRC-5,1.4 µM
OC[C@H]1O[C@@H](n2c(Br)nc3cc(Cl)c(Cl)cc32)[C@H](O)[C@@H]1O,AD169,EC50,virus yield,HFF,<2 µM
Nc1nc2c(ncn2COC(CO)CO)c(=O)[nH]1,VR4990 (ganciclovir-resistant),EC50,plaque count,,23 µM
O[C@@H]1[C@H](O)CO[C@H]1n1c(Cl)nc2cc(Cl)c(Cl)cc21,TOWNE,EC50,virus yield,HFF,<0.5 µM
OC[C@H]1O[C@@H](n2c(Br)nc3cc(Cl)c(Cl)cc32)[C@H](O)[C@@H]1O,C8708/17-1-1,EC50,plaque count,HFF,0.7 µM
Nc1nc2c(ncn2COC(CO)CO)c(=O)[nH]1,R56 (BDCRB- maribavir-resistant),EC50,plaque count,HFF,13.3 µM
CCCCCCCCCCCCCCCCCCOCCOP(=O)(O)CO[C@H](CO)Cn1ccc(N)nc1=O,C9208/5-4-2,EC50,plaque count,MRC-5,0.001 µM
O[C@@H]1[C@H](O)[C@H](O)CO[C@H]1n1c(Br)nc2cc(Cl)c(Cl)cc21,DAVIS,EC50,plaque count,HFF,1.9 µM
OC[C@@H]1O[C@@H](n2c(Cl)nc3cc(Cl)c(Cl)cc32)[C@H](O)[C@@H]1O,C4 (BDCRB- maribavir-resistant),EC50,plaque count,HFF,56 µM

A second listing of 2 rows from above:

SMILES | strain or isolate | measure | read by | cells | result
Nc1nc2c(ncn2COC(CO)CO)c(=O)[nH]1 | C4 (BDCRB-resistant) | EC90 | virus yield | HFF | 1.6 µM
Nc1nc2c(ncn2COC(CO)CO)c(=O)[nH]1 | C8910 | EC50 | plaque count | MRC-5 | 1.4 µM